Source: PubChem BioAssay AID504761 (Drosophila RNAi Screening Center, 2011)
The deposit covers about 22,000 reagents; this is an unselected part of those with a known target gene and a result. Over the whole deposit, 116 (0.52%) got an active call. 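Calls depend on retest data that are not deposited; infection was ranked per plate without normalising between plates; the unit of the infection score is not given.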 Names joined by + are all predicted targets of the reagent. Further read-outs or replicates are left out here. No sequences are given here. The record does not give: the amount of reagent, the time to read-out.

Test: 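Genome-wide fly cell screen for genes dengue virus requires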 (primary screen)
System: D.Mel-2 cells from Drosophila
Reagents: long dsRNA against Drosophila genes
Treatment: infection with dengue virus type 2; dose and infection time not stated
Detection: 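Cells stained for dengue envelope protein and imaged; percent of infected cells per well on duplicate plates, ranked by infection, with stained nuclei counted for cell number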
Reading the numbers: infection score: higher = more virus-infected cells
Call rule: 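Low infection ranks in the two replicates (chance level up to 0.065) followed by a retest with a 1.5-fold or larger significant decrease, p below 0.05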
Meaning of the calls: active = confirmed: knock-down lowers infection; inactive = not picked or not confirmed

no.	Gene	DRSC id	infection score, replicate 1	Outcome
1	Chro	DRSC11630	3.02	inactive
2	CG31862	DRSC01245	3.69	inactive
3	CG7102	DRSC02647	6.24	inactive
4	CG7102	DRSC03007	6.72	inactive
5	Ulp1	DRSC19339	2.84	inactive
6	Cyp4g1	DRSC18459	3.22	inactive
7	Cyp4g1	DRSC29899	14.2	inactive
8	CG13306	DRSC09976	2.09	inactive
9	angel	DRSC04670	5.66	inactive
10	angel	DRSC21326	0.97	inactive
11	M1BP	DRSC16566	21.6	inactive
12	M1BP	DRSC29073	22.8	inactive
13	step	DRSC03694	16.6	inactive
14	step	DRSC03699	2.69	inactive
15	Cyp4e1	DRSC07370	16.8	inactive
16	Cyp4e1	DRSC27154	8.43	inactive
17	RanGAP	DRSC22003	4.01	inactive
18	RanGAP	DRSC29400	0.33	inactive
19	CG4229	DRSC10407	1.7	inactive
20	Septin5	DRSC06843	15.5	inactive
21	Septin5	DRSC29954	8.5	inactive
22	CG14915	DRSC02399	2.34	inactive
23	CG14915	DRSC26295	8.52	inactive
24	hmw	DRSC16277	2.02	inactive
25	Mal-A2	DRSC07460	2.14	inactive
26	Dhod	DRSC16647	2.31	inactive
27	r + CG13012	DRSC19531	0.93	inactive
28	Hen1	DRSC06139	22.1	inactive
29	Hen1	DRSC06140	22.1	inactive
30	Hen1	DRSC26993	15.5	inactive
31	CG11227	DRSC20476	3.86	inactive
32	CG11227	DRSC29906	35.5	inactive
33	CG15873	DRSC04277	6.52	inactive
34	Gclm	DRSC15677	1.9	inactive
35	Gclm	DRSC26358	13.8	inactive
36	nAChRalpha3	DRSC18800	7.38	inactive
37	nAChRalpha3	DRSC25751	12.8	inactive
38	CG6659	DRSC20003	12.3	inactive
39	CG14455	DRSC11712	6.91	inactive
40	CG14455	DRSC29992	6.21	inactive
